For one compound, PD50 results are on record in ChEMBL document CHEMBL3244298, “Adamantylthiourea derivatives as antiviral agents” (J Med Chem, 1979).

This assay has as its system unidentified influenza virus. The experiment in a line: Antiviral activity against Influenza virus A2/Asian/J305 infected in ip dosed mouse assessed as concentration required to cause survival at 21 days. It counts as functional.

Take `CCOP(=O)(NC(=S)NC12CC3CC(CC(C3)C1)C2)OCC`: the PD50 worked out at 260 mg/kg.
